Data taken from US7238793B2 (Duke University, priority 2001, dated 2007).

The chains behind the UniProt entries cited, without tags or fusion partners.
UniProt P03372, whole entry, looked up: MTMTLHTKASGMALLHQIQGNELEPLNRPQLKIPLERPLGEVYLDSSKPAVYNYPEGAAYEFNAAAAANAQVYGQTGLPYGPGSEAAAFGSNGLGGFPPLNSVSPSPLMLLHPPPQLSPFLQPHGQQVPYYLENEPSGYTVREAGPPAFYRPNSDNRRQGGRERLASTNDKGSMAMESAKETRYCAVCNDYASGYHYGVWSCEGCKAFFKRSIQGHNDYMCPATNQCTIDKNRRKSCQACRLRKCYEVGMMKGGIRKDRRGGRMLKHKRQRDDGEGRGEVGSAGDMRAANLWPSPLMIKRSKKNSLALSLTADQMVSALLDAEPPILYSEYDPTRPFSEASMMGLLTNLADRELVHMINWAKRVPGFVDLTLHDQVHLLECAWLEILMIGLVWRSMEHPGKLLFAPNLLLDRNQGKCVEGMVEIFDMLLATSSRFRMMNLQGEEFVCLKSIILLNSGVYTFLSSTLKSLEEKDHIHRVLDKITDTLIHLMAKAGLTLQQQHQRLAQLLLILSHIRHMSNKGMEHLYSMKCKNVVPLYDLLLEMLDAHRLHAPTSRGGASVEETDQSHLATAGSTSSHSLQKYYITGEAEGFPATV

Biological target: ERα (Homo sapiens, UniProt P03372)
Format: cell-based
Conditions: ligand 10 nM

In the case of `C[C@]12CC[C@@H]3c4ccc(O)cc4C[C@@H](CCCCCCCCC[S+]([O-])CCCC(F)(F)C(F)(F)F)[C@H]3[C@@H]1CC[C@@H]2O` (some centres unmarked) [ICI 182,780], the “ligand activity on ERα when RTA-Δ2 is expressed” value (1X-ERE-tata-Luc) is reported as “agonist” and the “ligand activity on ERα when RTA-Δ2 is expressed” value (3X-ERE-tata-Luc) is reported as “agonists”.

Read-outs that look alike come from different tables or passages of the source.
